Experimental data reported in publication PMC10378424, “A Shiga Toxin B-Subunit-Based Lectibody Boosts T Cell Cytotoxicity towards Gb3-Positive Cancer Cells” (2023).

Biological target: StxB-scFv UCHT1 lectibody (Shigella dysenteriae)
Test: SEC

How did the stoichiometry N turn out when StxB-scFv UCHT1 lectibody was run?
Its stoichiometry N is 2.
